# Experimental data published in publication PMC6686156, “Discovery of Sustainable Drugs for Neglected Tropical Diseases: Cashew Nut Shell Liquid (CNSL)‐Based Hybrids Target Mitochondrial Function and ATP Production in Trypanosoma brucei” (Chemmedchem, 2019).
# Tested on: T. b. brucei 427WT BSF
# Assay: Metabolomics assay in T. b. brucei (LC-MS)
# Assay type: cell-based, Trypanosoma brucei brucei
# Details: 0.5×EC50 of 22, 2 h
smiles,measurement,setting,value
"O=C1C(Oc2cccc(CCCCCCCCO)c2)=CC(=O)c2c(O)cccc21 [Compound 22, 5‐Hydroxy‐2‐(3‐(8‐hydroxyoctyl)phenoxy)naphthalene‐1,4‐dione]","Treated/Control, sphinganine",m/z 302.3046,1.654
same,"Treated/Control, [SP (16:0)] N‐(hexadecanoyl)sphing‐4‐enine",m/z 538.5181,2.450
same,"Treated/Control, [SP (16:0)] N‐(hexadecanoyl)sphinganine",m/z 540.5348,14.230
same,"Treated/Control, [SP (18:0)] N‐(octadecanoyl)sphing‐4‐enine (tR 5.6 min)",m/z 566.5493,4.689
same,"Treated/Control, [SP (18:0)] N‐(octadecanoyl)sphing‐4‐enine (tR 3.8 min)",m/z 566.5504,3.028
same,"Treated/Control, sphing‐8(Z)‐enine‐19:0, ceramide",m/z 578.5528,6.708
